Data from publication PMC12514038, “Anti-M1R/B6R antibody characterization and bispecific design for enhanced orthopoxvirus protection” (EMBO Molecular Medicine, 2025).

Legend:
Conditions in all cases: both partners purified
[1] = molecular target: T1, MPXV M1R, residues A3-G181, C-terminal 6×His tag (pCAGGS, Expi293F) (Monkeypox virus, clade IIb 2022 …, biotinylated in the BLI assay); assay: SPR
[2] = molecular target: MPXV M1R, residues A3-G181, His tag (pET21a, E. coli, refolded) (Monkeypox virus, clade IIb 2022 …); assay: crystal structure
[3] = molecular target: T1, MPXV M1R, residues A3-G181, C-terminal …; assay: BLI

B1: hmMM1-40, humanized mMM1-40 monoclonal antibody (antibody, V domains shown)
VH: QVQLVQSGAEVKKPGASVKVSCKASGYIFTRYWMHWVRQAPGQGLEWMGYINPSTGYTEYNQKFKDRVTMTRDTSTSTVYMELSSLRSEDTAVYYCARSDYTNYVFEYWGQGTLVTVSS
VL: DVVMTQSPLSLPVTLGQPASISCRSSQSLVHSNGNTYLHWFQQRPGQSPRRLIYKVSNRFSGVPDRFSGSGSGTDFTLKISRVEAEDVGVYYCSQSTHVPYTFGGGTKVEIK
notes: copies: 2 + 2
binding result [1]: binds

B2: hmMM1-40 Fab (Fab, V domains shown)
VH: B1 VH
VL: B1 VL
binding result [2]: binds

B3: mMM1-16 Fab (Fab, V domains shown)
VH: QIQLQQSGAELARPGASVKLSCKASGYTFITYWIQWVKQRPGQGLEWIGAIYPGDGDTRYTQKFKAKATLTADKSSSTAYMQLSTLTSEDSAVYFCAKGDTYPAAMDYWGQGTSVTVSS
VL: DIQMTQSPASLSASVGETVTITCRTSGNIHNYLAWYQQKQGRSPQLLVNNAKTLADGVPSRFSGSGSGTQYSLKINSLQPEDIGSYYCQHFWITPYTFGGGTKLEIK
binding result [2]: binds

B4: 7D11, published anti-L1R neutralizing monoclonal antibody (antibody, V domains shown)
VH: QVQLQQSGAELAKPGASVKMSCKASGYTFTRYWMHWVKQRPGQGLEWIGYINPSTGYTEYNQKFKDKATLTADKSSSTVYMQLSSLTSEDSAVYYCARTTVDGYDFAYWGQGTLVTVSA
VL: DMVMSQSPSSLAVSAGEKVSMSCKSSQTLLNSRTRKNYLAWYQQKPGQSPKLLIYWASTRESGVPDRFTGSGSGTDFTLTISSVQAEDLAVYYCKQSYNLWTFGGGTKLEIK
binding result [3]: binds

B5: mMM1-16 monoclonal antibody (mouse variable regions, human IgG1/Igκ constant regions) (antibody, V domains shown)
VH: B3 VH
VL: B3 VL
notes: copies: 2 + 2
Kd [1]: < 50 nM
